This assay has as its target wild-type SARS-CoV-2 RBD-His protein (SARS-CoV-2, wild-type, UniProt P0DTC2). Nature of the assay: SPR. Conditions: both partners purified.

B1: 1D1 human monoclonal antibody against the RBD of SARS-CoV-2 (antibody, V domains shown)
VH: EVLLVESGGGLIQPGGSLRLSCAASGFTVSSNYMIWVRQAPGKGLEWVSLIYSGGSTFYADSVKGRFIISRDSSKNTLYLQMNSLRAEDTAVYYCAREPYGDKAWGQGTLVTVSS
VL: DIQMTQSPSSLSASVGDRVTITCQASQDINKYLNWYQQKPGKAPKPLISDTSNLQPGVPSRFSGSGAGTDFTLTISSLQPEDIATYYCQQYDNLPITFGQGTRLEIK
For the molecule B1, the t1/2 turned out to be 1.28 h.

(Values after paper PMC10159178 (PLOS ONE, 2023).)
